As usually defined, the inhibition is the relative decrease from the control value, in per cent.

The record followed here is PubChem BioAssay AID602405 (Broad Institute, 2012).

The list shows a part of the results, in another mix than the full data. The source made the active and inactive calls. Cut-off read from the data, not from the text of the source: active = inhibition above about 16% (passing the limit was not always enough); inconclusive = no clear call, values can overlap the other calls; inactive = below that.

The assay relates to UDP-N-acetylbacillosamine N-acetyltransferase PglD (Campylobacter jejuni). The experiment in a line: C. jejuni PglD acetyltransferase inhibitors, primary screen, biochemical, DTNB colorimetric, single point (AID 602405). As to conditions: purified PglD enzyme, DTNB colorimetric CoA detection; at 12.5 µM; active compounds read high.
For the molecule `O=C(NCC1(N2CCCCC2)CCCCC1)c1cccc(C(F)(F)F)c1`, the inhibition is inactive: 0.291%.

Take `CN1CCN(CCOC(=O)C(O)(c2ccccc2)c2ccccc2)CC1`: the inhibition is inactive: 4.38%.

Regarding `CCCCn1nnnc1C(c1cccc2ccccc12)N1CCC(n2c(=O)[nH]c3ccccc32)CC1` (stereo not given), the inhibition was inactive: -5.89%.

As to `COc1cc(C(=O)NCC2(N3CCCCC3)CCCCC2)ccc1OC(F)F`, the inhibition is inactive: 9.12%.

Consider `O=C(NCC1(N2CCOCC2)CCCCC1)c1cc(=O)[nH]c2ccccc12`, for which the inhibition is inactive: -0.875%.

As for `O=C(NCC1(N2CCCCC2)CCCCC1)c1ccc(OC(F)F)cc1`, the inhibition was inactive: 3.27%.

On to `CC(C)(C)n1nnnc1C(c1ccccc1OC(F)(F)F)N1CCC(n2c(=O)[nH]c3ccccc32)CC1` (stereo not given), for which the inhibition was inactive: 3.9%.

`CSc1ccc(C(=O)NCC2(N3CCOCC3)CCCCC2)cc1`: the inhibition was inactive: -0.382%.

As for `O=c1[nH]c2ccccc2n1C1CCN(C(c2ccccc2OC(F)(F)F)c2nnnn2C2CCCC2)CC1` (stereo not given), the inhibition was inactive: 3.78%.

Turning to `N#CC1(Nc2ccccc2)CCN(CCc2ccccc2)CC1`, the inhibition is inactive: -2.93%.

Regarding `CCN1CCC(Nc2ccc(Cl)cc2)CC1`, the inhibition was inactive: -6.29%.

`O=c1[nH]c2ccccc2n1C1CCN(C(c2ccccc2)c2nnnn2C2CCCCC2)CC1` (stereo not given): the inhibition was inactive: 4.08%.

Consider `O=c1[nH]c2ccccc2n1C1CCN(C(c2cccc3ccccc23)c2nnnn2C2CCCC2)CC1` (stereo not given), for which the inhibition is inactive: -5.1%.

On to `CCOC(=O)N1CCC(Nc2cccc(C)c2)CC1`, for which the inhibition was inactive: 5.66%.

Turning to `COc1cc(C(=O)NCC2(N(C)C)CCCCC2)ccc1OC(F)F`, the inhibition is inactive: -4%.

Consider `O=C1CCN(Cc2ccccc2)CC1`, for which the inhibition was inactive: -6.03%.

As for `CC(C)(C)n1nnnc1C(c1ccccc1)N1CCC(n2c(=O)[nH]c3ccccc32)CC1` (stereo not given), the inhibition was inactive: 6.06%.

For `COc1ccc(NC2CCN(CCc3ccccc3)CC2)c(OC)c1`, the inhibition was inactive: -1.23%.

Regarding `CCOC(=O)N1CCC(Nc2ccc(F)cc2)CC1`, the inhibition is inactive: 4.79%.

As to `O=P1(N(CCCl)CCCl)SCCCS1`, the inhibition is inactive: -5.85%.

Regarding `CCCCn1nnnc1C(c1cc2ccccc2o1)N1CCC(n2c(=O)[nH]c3ccccc32)CC1` (stereo not given), the inhibition was inactive: -5.71%.

Consider `CCCCOc1ccc(C(=O)NCC2(N3CCOCC3)CCCCC2)cc1`, for which the inhibition is inactive: 3.6%.

In the case of `O=C(NCC1(N2CCCCC2)CCCCC1)c1ccc(F)cc1`, the inhibition is inactive: 2.76%.

On to `Cc1cc(C)cc(N(C(=O)c2ccccc2)C2CCN(C(=O)OC(C)(C)C)CC2)c1`, for which the inhibition is inactive: -8.32%.

Consider `O=C(NCC1(N2CCCCC2)CCCCC1)c1ccc(Cl)nc1`, for which the inhibition was inactive: 2.11%.

Regarding `O=c1[nH]c2ccccc2n1C1CCN(C(c2ccccc2OC(F)(F)F)c2nnnn2C2CCCCC2)CC1` (stereo not given), the inhibition was inactive: 1.36%.

Consider `CCCCn1nnnc1C(c1ccc(OC)cc1)N1CCC(n2c(=O)[nH]c3ccccc32)CC1` (stereo not given), for which the inhibition was inactive: -1.34%.

Regarding `CCOC(=O)N1CCC(Nc2ccc(OC)cc2)CC1`, the inhibition was inactive: 5.8%.

As for `O=C(NCC1(N2CCCCC2)CCCCC1)c1ccc(Cl)s1`, the inhibition was inactive: 1.4%.

As to `O=C(OC1CN2CCC1CC2)C1c2ccccc2Oc2ccccc21` (stereo not given), the inhibition is inactive: 4.62%.

Take `O=c1[nH]c2ccccc2n1C1CCN(C(c2cc3ccccc3o2)c2nnnn2C2CCCCC2)CC1` (stereo not given): the inhibition was inactive: 0.772%.

With `CCCCn1nnnc1C(CC)N1CCC(n2c(=O)[nH]c3ccccc32)CC1` (stereo not given), the inhibition was inactive: 3.79%.

Regarding `O=C(NCC1(N2CCCCC2)CCCCC1)c1cccs1`, the inhibition was inactive: 8.19%.

With `CCCCn1nnnc1C(c1cccs1)N1CCC(n2c(=O)[nH]c3ccccc32)CC1` (stereo not given), the inhibition was inactive: 0.832%.

For `O=C(NCC1(N2CCCCC2)CCCCC1)c1ccc(=O)[nH]c1`, the inhibition is inactive: 4.05%.

As for `CC(C)(C)OC(=O)N1CCC(N(C(=O)c2ccccc2)c2ccc(F)cc2)CC1`, the inhibition was inactive: -5.48%.

Consider `CCC(c1nnnn1C1CCCC1)N1CCC(n2c(=O)[nH]c3ccccc32)CC1` (stereo not given), for which the inhibition is inactive: -2.7%.

For the molecule `COc1ccc(C(=O)NCC2(N3CCCCC3)CCCCC2)cc1`, the inhibition was inactive: 4.56%.

With `Cc1cccc(NC2(C#N)CCN(Cc3ccccc3)CC2)c1`, the inhibition is inactive: 4.55%.

`CSc1ccccc1C(=O)NCC1(N2CCCCC2)CCCCC1`: the inhibition was inactive: -3.16%.
